Source: paper PMC7676316, “Complete Mapping of Mutations to the SARS-CoV-2 Spike Receptor-Binding Domain that Escape Antibody Recognition” (Cell Host & Microbe, 2021)

B1: COV2-2082 (human IgG) (antibody, V domains shown)
VH: EVQLVESGGGVVRPGGSLRLSCAASGFIFDDYDMTWVRQAPGKGLEWVSGISWNGGNTGYADSVKGRFTISRDNAKNSLYLQMNSLRAEDTALYHCAVIMSPIPRYSGYDWAGGAFDIWGQGTMVTVSS
VL: SSELTQDPAVSVALGQTVRITCQGDSLRSYYASWYQQKPGQVPILVIYDKNNRPSGIPDRFSGSSSGNTASLTITGAQAEDEADYYCNSRDSSGNAVVFGGGTKLTVL
B2: COV2-2082 Fab (Fab, V domains shown)
VH: B1 VH
VL: B1 VL
B3: COV2-2479 Fab (Fab, V domains shown)
VH: QVQLVQSGAEVKKPGSSVKVSCKTSGDTSSSYTVGWVRQAPGQGLEWMGRIIPILGIAYSAQKFQGRLTITADKSTSTSYMELSSLRSEDTAVYYCARGVVAATPGWFDPWGQGTLVTVSS
VL: EIVMTQSPATLSVSPGERVTLSCRASQSVSSNLAWYQQKPGQAPRLLIYGASTRATGIPARFSGGGSGTEFTLTISSLQSEDFAVYYCQQYNNFLTFGGGTKVEIK

Tests used:
[1] = target: SARS-CoV-1 Urbani RBD, unmutated, yeast-displayed (SARS-CoV-1 Urbani (GenBank AY278741), UniProt P59594)
[2] = target: SARS-CoV-2 S6P_(ecto), spike ectodomain with 4 additional proline substitutions (SARS-CoV-2, Wuhan-Hu-1, UniProt P0DTC2, K986P | V987P)

| Binder | binding result [1] | binding result [2] |
| --- | --- | --- |
| B1 | binds |  |
| B2 |  | binds |
| B3 |  | binds |
